Assay results from US20240042259A1.

Assay: Relative hydrolytic reactivity of methyl paraoxon versus triphenyl phosphate (separate experiment)
Settings: hydrolysis with aminoguanidine imines

COP(=O)(OC)Oc1ccc([N+](=O)[O-])cc1
reaction rate relative to triphenyl phosphate (4): 1.2 times
